According to US11306344B2, “Spectral intensity ratio (SIR) analysis for rapid live microbial enumeration” (TACOUNT EXACT LTD., priority 2015, dated 2022):

Key:
Type in all cases: cell-based
E. coli #8739 [1] = assay: Flow-Cytometry SIR and NVP of dye-stained bacteria
E. coli = assay: Microscopy fluorescence imaging, gray level analysis of stained bacteria
E. coli #8739 [2] = assay: Fluorimeter (spectrofluorimetry) spectra, SIR and NVP of dye-stained bacteria

SMILES | mean fluorescence intensity I530 (E. coli #8739 [1]; heated inactivated bacteria) | mean fluorescence intensity I610 (E. coli #8739 [1]; heated inactivated bacteria) | mean fluorescence intensity I530 (E. coli #8739 [1]; live bacteria) | mean fluorescence intensity I610 (E. coli #8739 [1]; live bacteria) | fluorescence intensity I, gray level per object (E. coli; Emission 600(50) nm, Chlorinated inactivated bacteria) | fluorescence intensity I, gray level per object (E. coli; Emission 600(50) nm, Ethanol 70% inactivated bacteria) | fluorescence intensity I, gray level per object (E. coli; Emission 600(50) nm, Heated inactivated bacteria) | fluorescence intensity I, gray level per object (E. coli; Emission 600(50) nm, UV-MP inactivated bacteria) | fluorescence intensity I, gray level per object (E. coli; Excitation 470 nm, Emission 525(50) nm, Heated inactivated bacteria) | fluorescence intensity I, gray level per object (E. coli; Excitation 470 nm, Emission 525(50) nm, Live bacteria) | fluorescence intensity I, gray level per object (E. coli; Excitation 470 nm, Emission 600(50) nm, Live bacteria) | fluorescence intensity increase, inactivated vs live (E. coli #8739 [2]; at 530 nm) | fluorescence intensity increase, inactivated vs live (E. coli #8739 [2]; at 610 nm) | maximum emission peak (E. coli #8739 [2]; free dye in PBS, excitation 488 nm) | maximum emission peak (E. coli #8739 [2]; inactivated bacteria (85° C.)) | maximum emission peak (E. coli #8739 [2]; live bacteria) | maximum emission peak (E. coli #8739 [2]; chlorinated bacteria) | maximum emission peak (E. coli #8739 [2]; heated (85°, 15 min) bacteria)
CCCCN(CCCC)c1ccc(/C=C/c2cc[n+](CCC[N+](CC)(CC)CC)cc2)cc1.[Br-].[Br-] [FM® 1-43, N-(3-Triethylammoniumpropyl)-4-(4-(Dibutylamino) Styryl) Pyridinium Dibromide] | 457 | 4045 | 42 | 31 | 135(±20) GL | 90(±10) GL | 128(±20) GL | 120(±20) GL | 40(±10) GL | 35(±5) GL | 20-50 GL | 4 fold | 20 fold | 635 nm | 595 nm | 560 nm | – | –
CCN(CC)c1ccc(C=CC=CC=Cc2cc[n+](CCC[N+](CC)(CC)CC)cc2)cc1.[Br-].[Br-] [FM® 4-64, N-(3-Triethylammoniumpropyl)-4-(6-(4-(Diethylamino) Phenyl) Hexatrienyl) Pyridinium Dibromide] | – | – | – | – | – | – | – | – | – | – | – | – | – | – | – | 690 nm | 760 nm | 740 nm

Where no unit stands, none is given here, and values compare only within one read-out.
